Pooled drug test results. Numbers come from NIAID ChemDB, via PubChem.

All rows: tests on isolated targets

Blank or dashed fields: not listed here. ICn: concentration for n% inhibition. Two numbers with a dash give a range or band. Neighbouring rows are from separate reports. Percent inhibition refers to the dose given; in toxicity tests it is the harm to the cells.

compound | dose | endpoint | strain | method | protein | agent | changes | value
O=C(O)c1ccc2c(c1)nc(-c1ccc3nc(C(c4ccccc4)c4ccccc4)ccc3c1)n2C1CCCCC1 | 100 µM | inhibition | - | - | NS5B polymerase | Hepatitis C virus | - | 98.33%
CC(C)(C#Cc1ccc(NC(=O)CSc2nnnn2-c2ccc(C3CC3)cc2Cl)c(Cl)c1)OCCN1CCC(O)CC1 | - | IC50 | - | PicoGreen / fluorescence | Reverse transcriptase | HIV-1 | RT-K103 Y181C | <1 µM
COc1ccc(N2CCN(c3cncc(-c4ccc(C#N)cc4)n3)CC2)cc1 | 1 µM | inhibition | - | - | UL97 kinase | Cytomegalovirus | - | <50%
COc1ccc(-c2cccc(C(=O)O)c2)c(-c2ccc3cc(-c4nc5cc(C(=O)O)ccc5n4C4CCCCC4)ccc3n2)c1 | 33 µM | inhibition | - | - | NS5B polymerase | Hepatitis C virus | - | 100%
CC(C)(C)C(=O)c1cn2c(c(O)c1=O)C(=O)N(Cc1ccc(F)cc1)CC2 | - | IC50 | - | ELISA | Integrase | HIV-1 | - | 0.01–0.1 µM
CC(C)(CCCCNS(C)(=O)=O)CN(C[C@@H](O)[C@H](Cc1ccccc1)NC(=O)O[C@H]1CO[C@H]2OCC[C@H]21)S(=O)(=O)c1cccc(N)c1 | - | Ki | - | fluorescence | Protease | HIV-1 | - | <0.001 µM
O=c1ccn2ccn(CCCc3ccc(Cl)c(Cl)c3)c(=O)c2c1O | - | IC50 | - | ELISA | Integrase | HIV-1 | - | 0.01–0.1 µM
COc1ccc(-c2cnc3c(C(=O)O)cnn3c2C2CCCCC2)cc1F | - | IC50 | - | - | RNA-dependent RNA polymerase | Hepatitis C virus | - | 1–10 µM
CC(C)C(NC(=O)c1ccc2c(c1)nc(-c1ccc3nc(-c4ccccc4)cnc3c1)n2C1CCCCC1)C(=O)O | 100 µM | inhibition | - | - | NS5B polymerase | Hepatitis C virus | - | 97.78%
Nc1nc(N)c2c(n1)Cc1c(Cl)cccc1-2 | - | IC50 | TYPE 2 | - | Dihydrofolate reductase | Cryptosporidium parvum | - | >10 µM
CC(C)(CCCCCN)CN(C[C@@H](O)[C@H](Cc1ccccc1)NC(=O)O[C@H]1CO[C@H]2OCC[C@H]21)S(=O)(=O)c1ccc2c(c1)OCO2 | - | Ki | - | fluorescence | Protease | HIV-1 | - | <0.001 µM
COc1ccc(-c2ccc(F)c(Cl)c2)c(-c2ccc3cc(-c4nc5cc(C(=O)O)ccc5n4C4CCCCC4)ccc3n2)c1 | 100 µM | inhibition | - | - | NS5B polymerase | Hepatitis C virus | - | 99.38%
CSc1ccc(-c2cncc(N3CCN(c4ccc(F)cc4)CC3)n2)cc1 | 1 µM | inhibition | - | - | UL97 kinase | Cytomegalovirus | - | <50%
O=C(O)c1cc2nc(-c3ccc(OCc4ccccc4)cc3)cc(-c3ccc(-c4ccccc4)cc3)n2n1 | - | IC50 | - | - | RNA-dependent RNA polymerase | Hepatitis C virus | - | 1–10 µM
O=C(NCCO)c1cccc(-c2cncc(N3CCN(c4ccncc4)CC3)n2)c1 | - | IC50 | - | - | UL97 kinase | Cytomegalovirus | - | <100 µM
Cc1cc(C)n2nc(C(=O)O)cc2n1 | - | IC50 | - | - | RNA-dependent RNA polymerase | Hepatitis C virus | - | >10 µM
COc1ccccc1N1CCN(c2cncc(-c3ccc(SC)cc3)n2)CC1 | 1 µM | inhibition | - | - | UL97 kinase | Cytomegalovirus | - | <50%
O=C(Cc1cc(=O)c(O)c2n1CCN(Cc1ccc(Cl)c(Cl)c1)C2=O)OCc1ccccc1 | - | IC50 | - | ELISA | Integrase | HIV-1 | - | <0.01 µM
Nc1cnn2c(C3CCCCC3)c(-c3ccc(OCc4ccccc4)cc3)cnc12 | - | IC50 | - | - | RNA-dependent RNA polymerase | Hepatitis C virus | - | >10 µM
COc1ccc(OC)c(-c2sc3nc(N)nc(N)c3c2C)c1 | - | IC50 | TYPE 1 | - | Dihydrofolate reductase | Cryptosporidium parvum | - | 2.6 µM
O=C(N[C@@H](Cc1ccccc1)C(=O)O)c1cnn2c(C3CCCCC3)c(-c3ccc(OCc4ccccc4)cc3)cnc12 | - | IC50 | - | - | RNA-dependent RNA polymerase | Hepatitis C virus | - | 1–10 µM
COCc1cc(=O)c(O)c2n1CCN(Cc1ccc(Cl)c(Cl)c1)C2=O | - | IC50 | - | ELISA | Integrase | HIV-1 | - | 0.01–0.1 µM
Cc1cc(-c2ccccc2Br)nc2ccc(-c3nc4cc(C(=O)O)ccc4n3C3CCCCC3)cc12 | 100 µM | inhibition | - | - | NS5B polymerase | Hepatitis C virus | - | 99.81%
Cc1nc(C)c(N2CCN(c3ccncc3)CC2)nc1-c1cc2ccccc2s1 | 10 µM | inhibition | - | - | UL97 kinase | Cytomegalovirus | - | >15%
O=C1c2c(O)c(=O)c(-c3nccs3)cn2CCN1Cc1ccc(F)c(Cl)c1 | - | IC50 | - | ELISA | Integrase | HIV-1 | - | <0.01 µM
O=C(O)c1ccc2c(c1)nc(-c1ccc3nc(-c4cc([N+](=O)[O-])ccc4-c4ccc(Cl)cc4)ccc3c1)n2C1CCCCC1 | 33 µM | inhibition | - | - | NS5B polymerase | Hepatitis C virus | - | 99.19%
O=C(O)CNC(=O)c1cc2nc(-c3ccc(Cl)cc3)cc(-c3ccc(Oc4ccccc4)cc3)n2n1 | - | IC50 | - | - | RNA-dependent RNA polymerase | Hepatitis C virus | - | 1–10 µM
CS(=O)(=O)c1cn2ccn(Cc3cccc(Cl)c3)c(=O)c2c(O)c1=O | - | IC50 | - | ELISA | Integrase | HIV-1 | - | 0.01–0.1 µM
O=C(N[C@H](Cc1ccc(O)cc1)C(=O)O)c1cnn2c(C3CCCCC3)c(-c3ccc(F)cc3)cnc12 | - | IC50 | - | - | RNA-dependent RNA polymerase | Hepatitis C virus | - | <1 µM
Cc1ccc2cc(-c3ccc4cc(-c5nc6cc(C(=O)O)ccc6n5C5CCCCC5)ccc4n3)ccc2c1 | 100 µM | inhibition | - | - | NS5B polymerase | Hepatitis C virus | - | 101%
CCS(=O)(=O)NCCCCC(C)(C)CN(C[C@@H](O)[C@H](Cc1ccccc1)NC(=O)O[C@H]1CO[C@H]2OCC[C@H]21)S(=O)(=O)c1ccc2c(c1)OCO2 | - | Ki | - | fluorescence | Protease | HIV-1 | - | <0.001 µM
CCc1cn2ccn(Cc3cccc(Cl)c3)c(=O)c2c(O)c1=O | - | IC50 | - | ELISA | Integrase | HIV-1 | - | 0.01–0.1 µM
c1ccc2c(-c3cncc(N4CCN(c5cnccn5)CC4)n3)csc2c1 | - | IC50 | - | - | UL97 kinase | Cytomegalovirus | - | <1 µM
Nc1nc(N)c2c(n1)CCC(c1ccccc1)C2 | - | IC50 | TYPE 1 | - | Dihydrofolate reductase | Cryptosporidium parvum | - | >10 µM
COCC1CN(Cc2ccc(Cl)c(Cl)c2)C(=O)c2c(O)c(=O)ccn21 | - | IC50 | - | ELISA | Integrase | HIV-1 | - | 0.01–0.1 µM
Nc1nc(N)c2nc(Cc3cccc(C(F)(F)F)c3)c(Cc3cccc(C(F)(F)F)c3)nc2n1 | - | IC50 | TYPE 2 | - | Dihydrofolate reductase | Cryptosporidium parvum | - | >10 µM
COCCOC(=O)NCCCC(C)(C)CN(C[C@@H](O)[C@H](Cc1ccccc1)NC(=O)O[C@H]1CO[C@H]2OCC[C@H]21)S(=O)(=O)c1ccc2c(c1)OCO2 | - | Ki | - | fluorescence | Protease | HIV-1 | - | <0.001 µM
C[C@H](NC(=O)c1ccc2cc(-c3nc4cc(C(=O)O)ccc4n3C3CCCCC3)ccc2n1)C(N)=O | 100 µM | inhibition | - | - | NS5B polymerase | Hepatitis C virus | - | 88.47%
OCc1ccc(-c2cncc(N3CCN(c4cccc5[nH]ccc45)CC3)n2)cc1 | 10 µM | inhibition | - | - | UL97 kinase | Cytomegalovirus | - | >15%
COc1cccc(-c2cc(-c3ccc(Cl)cc3)nc3cc(C(=O)O)nn23)c1 | - | IC50 | - | - | RNA-dependent RNA polymerase | Hepatitis C virus | - | >10 µM
COc1ccc(N2CCN(c3cncc(-c4cccc(OC)c4OC)n3)CC2)cc1OC | - | IC50 | - | - | UL97 kinase | Cytomegalovirus | - | <100 µM
COCCOc1ccc(-c2ccccc2)c(-c2ccc3cc(-c4nc5cc(C(=O)O)ccc5n4C4CCCCC4)ccc3n2)c1 | 33 µM | inhibition | - | - | NS5B polymerase | Hepatitis C virus | - | 97.89%
Cc1ccc(-c2cncc(N3CCN(c4ccc(F)cc4F)CC3)n2)cc1 | - | IC50 | - | - | UL97 kinase | Cytomegalovirus | - | <100 µM
O=c1ccn2ccn(Cc3ccc(F)c(Cl)c3)c(=O)c2c1O | - | IC50 | - | ELISA | Integrase | HIV-1 | - | <0.01 µM

Repeating the first 5 entries:

compound | dose | endpoint | strain | method | protein | agent | changes | value
O=C(O)c1ccc2c(c1)nc(-c1ccc3nc(C(c4ccccc4)c4ccccc4)ccc3c1)n2C1CCCCC1 | 100 µM | inhibition | - | - | NS5B polymerase | Hepatitis C virus | - | 98.33%
CC(C)(C#Cc1ccc(NC(=O)CSc2nnnn2-c2ccc(C3CC3)cc2Cl)c(Cl)c1)OCCN1CCC(O)CC1 | - | IC50 | - | PicoGreen / fluorescence | Reverse transcriptase | HIV-1 | RT-K103 Y181C | <1 µM
COc1ccc(N2CCN(c3cncc(-c4ccc(C#N)cc4)n3)CC2)cc1 | 1 µM | inhibition | - | - | UL97 kinase | Cytomegalovirus | - | <50%
COc1ccc(-c2cccc(C(=O)O)c2)c(-c2ccc3cc(-c4nc5cc(C(=O)O)ccc5n4C4CCCCC4)ccc3n2)c1 | 33 µM | inhibition | - | - | NS5B polymerase | Hepatitis C virus | - | 100%
CC(C)(C)C(=O)c1cn2c(c(O)c1=O)C(=O)N(Cc1ccc(F)cc1)CC2 | - | IC50 | - | ELISA | Integrase | HIV-1 | - | 0.01–0.1 µM